This is a selection; strong and weak results do not stand in their true shares. Active and inactive are the calls of the source.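 How the source made its calls: active means inhibition above the mean of all tested compounds plus 3 SD, set per screening campaign (cut at about 45% in these data); inactive means the rest.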
These molecules were tested on HCV core protein (residues 1-106) dimerization (assay: blockers of core106 self-association – biochemical, TR-FRET, high-throughput, primary screen (AID 1899)). Settings: TR-FRET GST/Flag-core106 dimerization, 1536-well; at 5 µM; active compounds read high.
Procedure, shortened: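 System – GST-tagged and Flag-tagged HCV core protein residues 1-106 · Repeats – one well for each compound · Technique – TR-FRET 671 and 617 nm emission · Doses – one concentration, 5 µM, in 0.5% DMSO · Times – 4 h, 22.5 °C incubation · Also added – Eu donor and XL665 acceptor anti-tag antibodies · Measure – percent inhibition of core106 dimerization signal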

SMILES | inhibition
N#CC1(Nc2ccccc2)CCN(CCc2ccccc2)CC1 | inactive: -5.19%
CCN1CCC(Nc2ccc(Cl)cc2)CC1 | inactive: 5.73%
O=C(NCC1(N2CCCCC2)CCCCC1)c1cccc([N+](=O)[O-])c1 | inactive: -1.49%
O=C(NCC1(N2CCCCC2)CCCCC1)c1ccc(OC(F)F)cc1 | inactive: -5.92%
COc1cc(C(=O)NCC2(N3CCCCC3)CCCCC2)ccc1OC(F)F | inactive: -1.52%
O=C(NCC1(N2CCOCC2)CCCCC1)c1cc(=O)[nH]c2ccccc12 | inactive: 0.76%
CN1CCN(CCOC(=O)C(O)(c2ccccc2)c2ccccc2)CC1 | inactive: -6.78%
COc1ccc(NC2CCN(C(=O)OC(C)(C)C)CC2)cc1 | inactive: -7.41%
O=C(NCC1(N2CCCCC2)CCCCC1)c1cccc(C(F)(F)F)c1 | inactive: 6.01%
COc1cc(OC)c(C(=O)NCC2(N(C)C)CCCCC2)cc1OC | inactive: 1.09%
CC(C)c1ccc(NC2CCN(C(=O)OC(C)(C)C)CC2)cc1 | inactive: 0.19%
CN(C)c1cccc(C(=O)NCC2(N3CCCCC3)CCCCC2)c1 | inactive: -2.16%
COc1ccc(CN(CCCl)CCCl)cc1Cl | inactive: -1.54%
CN1CCC(Nc2cccc(F)c2)CC1 | inactive: 2.83%
CSc1ccccc1C(=O)NCC1(N2CCCCC2)CCCCC1 | inactive: 14.7%
COc1ccc(C(=O)NCC2(N3CCCCC3)CCCCC2)c(OC)c1OC | inactive: -0.89%
CC(C)(C)OC(=O)N1CCC(N(C(=O)c2ccccc2)c2ccc(F)cc2)CC1 | inactive: 8.31%
COc1ccc(C(=O)NCC2(N3CCCCC3)CCCCC2)cc1 | inactive: -6.85%
O=C(NCC1(N2CCCCC2)CCCCC1)c1cccs1 | inactive: 0.63%

SMILES | inhibition
O=C(NCC1(N2CCCCC2)CCCCC1)c1ccc(=O)[nH]c1 | inactive: 2.68%
N#CC1(Nc2ccccc2)CCN(Cc2ccccc2)CC1 | inactive: 1.34%
O=C(OC1CN2CCC1CC2)C1c2ccccc2Oc2ccccc21 (stereo unspecified) | inactive: -1.35%
CCOC(=O)N1CCC(Nc2ccc(OC)cc2)CC1 | inactive: -6.98%
Cc1cc(C)cc(N(C(=O)c2ccccc2)C2CCN(C(=O)OC(C)(C)C)CC2)c1 | inactive: 11.5%
O=C(NCC1(N2CCCCC2)CCCCC1)c1ccc(Cl)nc1 | inactive: -2.6%
O=C(NCC1(N2CCOCC2)CCCCC1)c1cc2ccccc2o1 | inactive: 7.55%
COc1ccc(NC2CCN(CCc3ccccc3)CC2)c(OC)c1 | inactive: -9.85%
O=C(NCC1(N2CCCCC2)CCCCC1)c1ccc(F)cc1 | inactive: -0.67%
CCOc1ccc(C)cc1CN(CCCl)CCCl | inactive: -1.11%
Cc1ccc(OCC(C)C)c(CN(CCCl)CCCl)c1 | inactive: 4.83%
CCOC(=O)N1CCC(Nc2cccc(C)c2)CC1 | inactive: 12.8%
Fc1ccccc1NC1CCN(Cc2ccccc2)CC1 | inactive: -5.17%
Cc1ccc(C(=O)NCC2(N3CCCCC3)CCCCC2)o1 | inactive: 6.79%
COc1cc(OC)cc(C(=O)NCC2(N3CCCCC3)CCCCC2)c1 | inactive: -2.36%
CN(C)c1ccc(C(=O)NCC2(N3CCCCC3)CCCCC2)cc1 | inactive: 1.11%
CCN1CCC(Nc2cccc(F)c2)CC1 | inactive: -13.4%
O=C(O)C1(Nc2ccccc2)CCN(Cc2ccccc2)CC1 | inactive: 4.99%
CC(C)(C)OC(=O)N1CCC(Nc2ccccc2)CC1 | inactive: 0.33%

SMILES | inhibition
CCCOc1ccc(C(=O)NCC2(N(C)C)CCCCC2)cc1 | inactive: -3.61%
CN1CCC(Nc2ccc(F)c(Cl)c2)CC1 | inactive: -6.32%
CCOc1ncccc1C(=O)NCC1(N2CCOCC2)CCCCC1 | inactive: -2.18%
CN1CCC(Nc2ccc(Cl)cc2)CC1 | inactive: 9.74%
CCCOc1ccc(C)cc1CN(CCCl)CCCl | inactive: 0.99%
COc1cc(OC)cc(C(=O)NCC2(N3CCOCC3)CCCCC2)c1 | inactive: 6.12%
COc1cccc(C(=O)N(c2cc(C)cc(C)c2)C2CCN(C(=O)OC(C)(C)C)CC2)c1 | inactive: 11.7%
CCC(CO)(C(=O)OC1CN2CCC1CC2)c1ccccc1 (stereo unspecified) | inactive: -5.58%
COc1ccc(C(=O)NCC2(N3CCOCC3)CCCCC2)cc1OC | inactive: -0.16%
CCc1cc(C(=O)NCC2(N3CCCCC3)CCCCC2)sc1C | inactive: -2.32%
O=C(OC1CN2CCC1CC2)C1c2ccccc2C=Cc2ccccc21 (stereo unspecified) | inactive: 1.48%
CCOC(=O)N1CCC(Nc2ccc(C)cc2)CC1 | inactive: 8.01%
N/C(=N\O)c1c(N)no[n+]1[O-] | inactive: -6.11%
N#Cc1ccc(C(=O)NCC2(N3CCCCC3)CCCCC2)cc1 | inactive: 11.8%
CC(C)(C)OC(=O)N1CCC(N(C(=O)c2ccccc2)c2ccc(Cl)cc2)CC1 | inactive: 8.27%
CN(C)C1(CNC(=O)c2cccc(C#N)c2)CCCCC1 | inactive: 1.24%
CCCN1CCC(Nc2cc(OC)cc(OC)c2)CC1 | inactive: -2.2%
c1ccc(CN2CCC(Nc3ccccc3)CC2)cc1 | inactive: -8.18%
